Measurements from the supplement of paper PMC12637763.
Positions count from the first letter of the chain named. This is one part of the list. Env chains of viruses from a treatment-interruption trial, translated from the printed DNA. IC50 / IC80 of two broadly neutralizing antibodies; lower = more sensitive virus; >50 µg/ml means not reached and <0.001 µg/ml is below the lowest dose. No active / inactive call.

B1: HIV-1 Env, rebound clone, placebo arm (protein)
chain: MKVRGTKMNWQHLWWRWGTMLLGMLMICKATEEKWVTVYYGVPVWKEATTTLFCASDAKAYEKEAHNVWATHACVPTDPSPQEVVLENVTENFNMWKNNMVEQMHEDIISLWDQSLKPCVKLTPLCVTLNCTDYTNSNSTNHTNSNSSSPTPTAGGEIKNCSFNITTNIRDKIKKEHALFYSLDVVQIDINDNTSYRLISCNTSVITQACPKTTFEPIPIYYCAPAGFAILKCNNKTFDGKGPCKNVSTVQCTHGIRPVVSTQLLLNGSLAEKEIVIRSDNFSDNTKNIIVQLKDPVVINCTRPNNNTRKGIHIGPGKAFYATGKVIGDIRQAYCNISKEEWNKTLGQIVKKLGAQFGNKTTMIFNQSSGGDPEIVTHSFNCGGEFFYCNTSALFNSTWSSNDGNGTWNKTNSTETNSTEIILQCRIKQIVNMWQEVGKAMYAPPIKGPIRCSSNITGLILTRDGGNNTGNNSETFRPAGGNMRDNWRSELYKYKIVKIEPLGIAPTKAKRRTVQREKRAVTMGAMFLGFLGAAGSTMGAASLTLTVQARQLLSGIVQQQNNLLRAIEAQQHLLQLTVWGIKQLQARVLAVERYLADQRFLGIWGCSGKLICTTTVPWNNSWSNKSLDSIWNNMTWMQWEKEIENYTGEIYNLIEQAQNQQEQNERELLELDKWASLWNWFDISNWLWYIKIFIMIVGGLIGLRIVFAVLSIVNRVRQGYSPLSLQTLLPTPRGPDRPEGIEGEGGERDRDTSIRLVDGFLALFWDDLRNLCLFSYRHLRDLLLIAARIVELLGLRGWEILKYLWNLLLYWSQELKNSAISLLDATAIAVAEGTDRIIEAVRRFCRGVLHIPRRIRQGFERALQ
B2: HIV-1 Env, rebound clone, placebo arm (protein)
chain: B1 chain with K318R, H378Y
B3: HIV-1 Env, rebound clone, placebo arm (protein)
chain: B1 chain with A58T, K318R
B4: HIV-1 Env, rebound clone, placebo arm (protein)
chain: B1 chain with K318R, D372N, E415K, E592K
B5: HIV-1 Env, rebound clone, placebo arm (protein)
chain: B1 chain with K318R, A525T
B6: HIV-1 Env, rebound clone, placebo arm (protein)
chain: B1 chain with K318R, S711F

Key:
antibody 10-1074 [1] = experiment: neutralization IC50; higher = virus less sensitive to the antibody
Description: (§1)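 Pseudovirus bearing the Env chain mixed with antibody, from 50 µg/ml in fivefold dilutions, on TZM-bl reporter cells, in duplicate.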

antibody 3BNC117 [2] = experiment: as above
Description: as §1

antibody 10-1074 [3] = experiment: neutralization IC80; higher = virus less sensitive to the antibody
Description: as §1

antibody 3BNC117 [4] = experiment: as above
Description: as §1

Binder | neutralization IC50 (antibody 10-1074 [1]) [µg/mL] | neutralization IC50 (antibody 3BNC117 [2]) [µg/mL] | neutralization IC80 (antibody 10-1074 [3]) [µg/mL] | neutralization IC80 (antibody 3BNC117 [4]) [µg/mL]
B1 | 0.004 | 0.073 | 0.016 | 0.264
B2 | 0.003 | 0.153 | 0.017 | 0.643
B3 | 0.005 | 0.109 | 0.014 | 0.477
B4 | 0.02 | 0.05 | 0.104 | 0.28
B5 | 0.004 | 0.121 | 0.027 | 0.335
B6 | 0.003 | 0.116 | 0.023 | 0.407
